Laboratory results taken from paper PMC9959676 (Molecules, 2023).

Assay: DPPH free radical scavenging assay
Conditions: mean absorbance at 517 nm, triplicate; 1.0 mL sample 0.5 mg/mL + 2 mL DPPH 0.2 mg/mL, 30 min
Procedure: The DPPH assay was carried out to estimate the antioxidant potential among all the compounds [29]. Then, 2 mL (0.2 mg/mL in methyl alcohol) of DPPH was mixed with 1.0 mL (0.5 mg/mL in methyl alcohol) of the sample solution in a test tube. All the reaction tubes were covered with aluminum foil and kept aside for 30 min to complete the reaction. The activity was carried out in a dark room. […] A UV-visible spectrophotometer was employed to observe a reduction in the concentration of free radicals at 517 nm. The absorbance of the control (1.0 mL methanol + 2 mL DPPH solution) was also measured. All samples were evaluated in a triplicate manner, and the mean results were recorded. The standard antioxidant (ascorbic acid) was evaluated and set as a reference/standard. The percentage of inhibition (%) was calculated using the following formula in terms of scavenging activity(S):S (%) = [(Ab − Aa)/Ab] × 100(1) where Ab = Absorbance of control; and Aa = Absorbance of the test sample
For `CCCCC(=O)N(Cc1ccc(-c2ccccc2-c2nn[nH]n2)cc1)C(C(=O)Oc1ccc(CC(N)C(=O)O)cc1)C(C)C` (stereo not drawn) [AV7, 3-(4-((2-(N-((2′-(2H-tetrazol-5yl)-[1,1′-biphenyl]-4 yl)methyl)pentanamido)-3methylbutanoyl)oxy)phenyl)-2amino-propanoic acid], the Mean was 0.948.
`CCCCC(=O)N(Cc1ccc(-c2ccccc2-c2nnn[nH]2)cc1)C(C(=O)Oc1ccc(N)cc1)C(C)C` (stereo not drawn) [AV4, 4-aminophenyl 2-(N-((2′-(2H-tetrazol-5yl) -[1,1′-biphenyl]-4yl)methyl)pentanamido)-3methyl butanoate] gave a Mean of 0.405.
`CCCCC(=O)N(Cc1ccc(-c2ccccc2-c2nn[nH]n2)cc1)C(C(=O)Oc1ccccc1C(=O)O)C(C)C` (stereo not drawn) [AV11, 2-((2-(N-((2′-(2H-tetrazole-5-yl)-[1,1′-biphenyl]-4yl)methyl)pentanamido)-3-methylbutanoyl)oxy) benzoic acid] showed a Mean of 0.112.
